Results as given in patent publication US6774141B1, “Calanolide and related antiviral compounds, compositions, and uses thereof” (The United States of America as represented by the …, priority 1992, dated 2004).

Tested on: HIV-1
Settings: for TI (IC50/EC50) BCECF: BCECF-based assay; for TI (IC50/EC50) XXT: XTT-based assay
Description: Pure compounds were initially evaluated for antiviral activity using an XTT-tetrazolium anti-HIV primary screening assay described previously (Boyd, M. R., in AIDS Etiology, Diagnosis, Treatment and Prevention (DeVita V. T., Jr., Hellman S., Rosenberg S. A., eds.), pp 305-319 (Philadelphia: Lippincott, 1988); Gustafson, K. R., et al., J. Med. Chem., 35, 1978-1986 (1992); Weislow, O. S., et al., J. Natl. Cancer Inst., 81, 577-586 (1989); Gulakowski, R. J., et al., J. Virol. Methods, 33, 87-100 (1991)). The CEM-SS human lymphocytic target cell line used in all assays was maintained in RPMI 1640 medium (Gibco, Grand Island, N.Y.), without phenol red, and was supplemented with 5% fetal bovine serum, 2 mM L-glutamine and 50 μg/ml gentamicin (complete medium). Exponentially-growing cells were pelleted and resuspended at a concentration of 2.0×10^5 cells/ml in complete medium. The Haitian variant of HIV, HTLV-IIIRF (3.54×10^6 SFU/ml), was used throughout. Frozen virus stock solutions were thawed immediately before use and resuspended in complete medium to yield […]. The appropriate amounts of the pure compounds for anti-HIV evaluations were dissolved in 100% dimethylsulfoxide (DMSO), then diluted in complete medium to the desired initial concentration (and with the final DMSO content not exceeding 1%). All serial drug dilutions, reagent additions, and plate-to-plate transfers were carried out with an automated Biomek 1000 Workstation (Beckman Instruments, Palo Alto, Calif.).
Briefly, the procedure was as follows. Uninfected CEM-SS cells were plated at a density of 1×10^4 cells in 50 μl of complete medium. Diluted HIV-1 virus was then added to appropriate wells in a volume of 50 μl to yield a multiplicity of infection of 0.6. Appropriate cell, virus and drug controls were incorporated in each experiment; the final volume in each microtiter well was 200 μl. Quadruplicate wells were used for virus-infected cells, and duplicate wells were used for uninfected cells. Plates were incubated at 37° C. in an atmosphere containing 5% CO2 for 6 days. Subsequently, aliquots of cell-free supernatant were removed from each well using the Biomek, and analyzed for reverse transcriptase activity, p24 antigen production and synthesis of infectious virions as described (Gulakowski, R. J., et al., J. Virol. Methods, 33, 87-100 (1991)). Cellular growth or viability then was estimated on the remaining contents of each well using the XTT (Weislow, O. S., et al., J. Natl. Cancer Inst., 81, 577-586 (1989)), BCECF (Rink, T. L., et al., J. Cell. Biol., 95, 189-196 (1982)) and DAPI (McCaffrey, T. A., et al., In Vitro Cell Develop. Biol., 24, 247-252 (1988)) assays as described (Gulakowski, R. J., et al., J. Virol. Methods, 33, 87-100 (1991)).

Compound | TI (IC50/EC50) BCECF | TI (IC50/EC50) XXT | in vitro therapeutic index (FIGS. 4A-D, IC50/EC50)
CCCc1cc(=O)oc2c3c(c4c(c12)OC(C)(C)C=C4)O[C@@H](C)[C@H](C)[C@@H]3O [Costatolide, costatolide] | 40 | 43 | –
CCCc1cc(=O)oc2c3c(c4c(c12)OC(C)(C)CC4)O[C@H](C)[C@@H](C)[C@@H]3O [DH-calanolide A, 7,8-dihydrocalanolide A] | 98 | 54 | –
CCCc1cc(=O)oc2c3c(c4c(c12)OC(C)(C)CC4)O[C@@H](C)[C@H](C)[C@@H]3O [DH-costatolide, 7,8-dihydrocostatolide] | 33 | 62 | –
CCCc1cc(=O)oc2c3c(c4c(c12)OC(C)(C)C=C4)O[C@H](C)[C@@H](C)[C@@H]3O [calanolide A] | 89 | 110 | ≥ 130
